Values from PubChem BioAssay AID504761 (Drosophila RNAi Screening Center, 2011).
The deposit covers about 22,000 reagents; shown is an unselected part of those with a known target gene and a result. In the full data, 116 (0.52%) are marked active. 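Calls depend on retest data that are not deposited; infection was ranked per plate without normalising between plates; the unit of the infection score is not given.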 Raw values are not corrected between plates. Names joined by + are all predicted targets of the reagent. Not given: the amount of reagent, the time to read-out.

Test: 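Genome-wide fly cell screen for genes dengue virus requires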 (primary screen)
Cell system: D.Mel-2 cells from Drosophila
Reagent: long dsRNA against Drosophila genes
Conditions: infection with dengue virus type 2; dose and infection time not stated
Measurement: 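Cells stained for dengue envelope protein and imaged; percent of infected cells per well on duplicate plates, ranked by infection, with stained nuclei counted for cell number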
Reading the numbers: infection score: higher = more virus-infected cells; cell count: higher = more cells in the well
Active means: 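Low infection ranks in the two replicates (chance level up to 0.065) followed by a retest with a 1.5-fold or larger significant decrease, p below 0.05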
Calls: active = confirmed: knock-down lowers infection; inactive = not picked or not confirmed

predicted target	amplicon	infection score, replicate 1	infection score, replicate 2	cell count, replicate 1	cell count, replicate 2	activity call
GstT2	DRSC06244	1.87	7.37	6990	6558	inactive
His2B:CG33894 + His2B:CG33872 + His2B:CG33902 + 20 more	DRSC21265	7.54	4.05	1101	1062	inactive
CG14440	DRSC23008	6.36	19.3	6320	4984	inactive
CG14440	DRSC23009	5.44	7.37	5902	6472	inactive
CG14440	DRSC25806	8.2	1.83	5899	6223	inactive
IP3K1	DRSC02734	11.6	3.18	6329	5715	inactive
Dci	DRSC08360	1.78	1.76	6193	6131	inactive
Dci	DRSC28929	14.5	20.6	5772	5463	inactive
Sec16	DRSC19788		15.2	444	4264	inactive
CG15144	DRSC02445	1.62	2.76	6188	6691	inactive
CG15144	DRSC27073	9.28	4.75	6314	6271	inactive
milt	DRSC00965	3.47	2.31	6164	6111	inactive
milt	DRSC00966	8.07	0.91	6454	6404	inactive
milt	DRSC02281	5.93	2.11	6036	6263	inactive
milt	DRSC28963	9.66	14.5	1283	5688	inactive
Xrp1	DRSC15283	0.93	0.36	5393	5316	inactive
Xrp1	DRSC28718	8.92	10.8	5528	5187	inactive
ZIPIC	DRSC16349	5.65	5.63	6146	6409	inactive
CG13078	DRSC02182	4.22	3.53	6584	1078	inactive
Prestin	DRSC10507	3.95	1.87	6248	6030	inactive
CG43707	DRSC00280	2.68	0.62	6453	6098	inactive
CG43707	DRSC22869	1.12	1.86	5692	5538	inactive
CG43707	DRSC25146	2.69	6.27	6102	6318	inactive
CG1824	DRSC19796	5.33	4.1	5740	6079	inactive
ine	DRSC00822	9.25		2280	447	inactive
ine	DRSC28874	10.1	8.47	5306	4166	inactive
Atg5	DRSC18112	8.23	4.32	6175	6406	inactive

The list goes on, starting with the last 2 of the part before.
predicted target	amplicon	infection score, replicate 1	infection score, replicate 2	cell count, replicate 1	cell count, replicate 2	activity call
ine	DRSC28874	10.1	8.47	5306	4166	inactive
Atg5	DRSC18112	8.23	4.32	6175	6406	inactive
Ccp84Af	DRSC12591	9.34	11.4	6339	5892	inactive
Ccp84Af	DRSC25262	13.1	16.8	5416	5518	inactive
CG1532	DRSC20516	1.08	1.61	6108	6015	inactive
CG30033	DRSC24832	1.71	2.82	6437	6499	inactive
SmD2	DRSC12536	9.56	28.9	837	2027	inactive
SmD2	DRSC28703	2.83		1025	403	inactive
Syt7	DRSC17130	1.22	13.3	329	4889	inactive
Syt7	DRSC17159	0.44	15.3	459	4939	inactive
Polr3K + Tcs1	DRSC05988	6.17	5.77	5788	6274	inactive
Polr3K + Tcs1	DRSC26790	2.63	5.21	6697	6353	inactive
bbx + waw	DRSC20575	2.08	1.48	6601	6535	inactive
bbx + waw	DRSC20589		4.96	1266	6428	inactive
Ubc6	DRSC12370	29.5	20.8	5183	5612	inactive
Ubc6	DRSC28862		3.93	385	737	inactive
CycD	DRSC20233	2.38	24	4657	5170	inactive
CycD	DRSC25031	4.7	2.55	5899	5761	inactive
dpr15	DRSC12891	3.13	3.71	5981	5600	inactive
dpr15	DRSC14187	12.7	3.17	6032	6872	inactive
dpr15	DRSC14188	5.42	5.79	5684	6527	inactive
mthl8	DRSC08211	11.3	12.2	6501	5999	inactive
mthl8	DRSC08311	0.6	5.06	5524	6476	inactive
CR30068 (retired record)	DRSC05477	2.25	4.4	6174	5928	inactive
CR30068 (retired record)	DRSC27393	9.57	2.21	6413	5839	inactive
l(2)05287	DRSC02151	24.2	36.9	5624	4777	inactive
l(2)05287	DRSC02152	22	6.07	3832	4795	inactive
l(2)05287	DRSC26660	9.27	5.86	5736	6112	inactive
CG8319	DRSC16407	4.78	14.6	5980	5953	inactive
CG8319	DRSC24607	1.91	4.23	5749	5538	inactive
RpS23	DRSC07169	27.6	30.9	4374	5204	inactive
RpS23	DRSC26313	8.84	11.8	4523	4999	inactive
Mrp4	DRSC14931	4.55	11.3	5777	5333	inactive
Mrp4	DRSC28151	8.17	15.1	6612	5498	inactive
dmt	DRSC16932	2.42	18.3	4010	3482	inactive
SH3PX1	DRSC11139	4.83	4.77	5048	4991	inactive
CG16974	DRSC02551	6.76	9.42	6673	6197	inactive
CG16974	DRSC28759			403	404	inactive
CG43902	DRSC17999	5.07	6.11	6356	6419	inactive
CG43902	DRSC25064	7.62	2.5	5653	6242	inactive
nonA	DRSC20357	2.1	7.97	5628	5005	inactive
nonA	DRSC27455	7.31	3.86	6073	6326	inactive
Asph	DRSC06783	9.53	22.3	6266	6790	inactive
Asph	DRSC07171	24.4	19.3	5034	4290	inactive
Asph	DRSC29507	7.9		1709	373	inactive
hkb	DRSC12377	1.27	1.16	6593	7011	inactive
hkb	DRSC23599	2.32	5.46	6556	6598	inactive
CG46491	DRSC06565	6.62	3.85	7373	6785	inactive
CG46491	DRSC06566	5.07	4.19	6168	6711	inactive
